{"source": "paper PMC7804251", "about": "(Communications Biology, 2021)", "target": "T1, cellular prion protein (PrP) (Mus musculus, UniProt P04925)", "T1 construct": "gene Prnp"}
{"smiles": "C[n+]1ccc(C2=C3C=CC4=[N+]3[Fe-]35[n]6c2ccc6C(c2cc[n+](C)cc2)=C2C=CC(=[N+]23)C(c2cc[n+](C)cc2)=c2ccc([n]25)=C4c2cc[n+](C)cc2)cc1", "note": "[TP, Fe3+-TMPyP]", "values": [{"measurement": "dynamic mass redistribution (DMR), immobilized recombinant PrP", "result": "TP shows a detectable affinity for both full-length, human, and N-terminally deleted, mouse PrP molecules"}]}
